Data source: PubChem BioAssay AID1259414 (Drosophila RNAi Screening Center, 2018)
The deposit covers about 24,000 reagents; this is an unselected part of those that have a named target and a result. Over the whole deposit, about 1,210 (5%) got an active call. 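Inactive calls also include excluded dsRNAs with several or no targets, genes unexpressed in JW18, and well A1, regardless of score.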 The numbers tell different reagents against one gene apart. Names joined by + are all predicted targets of the reagent. Reagent sequences are not shown.

Test: 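Genome-wide screen for host control of endosymbiont load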 (primary screen)
Cell system: Drosophila JW18 cells infected with Wolbachia
Reagent: long dsRNA against Drosophila genes, 0.25 µg dsRNA per well of a 384-well plate
Timing: 5 days
Challenge: cells persistently infected with Wolbachia before knock-down; no added drug
Measured: 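Automated imaging of bacterial rRNA staining divided by host cell count, reported as plate-normalised robust z-score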
Scale: Wolbachia per cell robust z: higher = more Wolbachia per host cell than the plate typical
Active means: 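Hit when robust z is 1.5 or more, or -1.5 or less, in at least two of three replicates; excludes dsRNAs with several or no targets, genes not expressed in JW18 and well A1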

no.	target	reagent no.	Wolbachia per cell robust z, rep 1	Wolbachia per cell robust z, rep 2	Wolbachia per cell robust z, rep 3	activity call
1	ZAP3 (GeneID 31942)	1	-0.487	0.597	-0.659	inactive
2	ZAP3 (GeneID 31942)	2	-1.96	-2.13	-0.861	active
3	ZAP3 (GeneID 31942)	3	-1.26	-0.291	-0.327	inactive
4	Dic3 (GeneID 35763)	1	-0.331	1.02	0.119	inactive
5	CG6574 (GeneID 41308)	1	0.26	1.11	0.606	inactive
6	CG13151 (GeneID 36374)	1	-3.54	-0.817	0.193	inactive
7	Nepl21 (GeneID 43413)	1	0.109	0.963	2.24	inactive
8	CG8547 (GeneID 36586)	1	-0.141	0.0733	-0.05	inactive
9	CG8547 (GeneID 36586)	2	0.954	1.25	1.81	inactive
10	CG33111 (GeneID 50068)	1	-0.236	-0.318	0.578	inactive
11	CG33111 (GeneID 50068)	2	-2.38	0.915	-0.681	inactive
12	unc-45 (GeneID 44910)	1	-1.89	0.0199	0.163	inactive

Entries listed so far marked active, once more:
target	reagent no.	Wolbachia per cell robust z, rep 1	Wolbachia per cell robust z, rep 2	Wolbachia per cell robust z, rep 3	activity call
ZAP3 (GeneID 31942)	2	-1.96	-2.13	-0.861	active

The results go on.
no.	target	reagent no.	Wolbachia per cell robust z, rep 1	Wolbachia per cell robust z, rep 2	Wolbachia per cell robust z, rep 3	activity call
13	Ppt1 (GeneID 31805)	1	-0.653	-2.99	0.0176	inactive
14	XNP (GeneID 43080)	1	0.397	0.716	0.697	inactive
15	XNP (GeneID 43080)	2	-0.64	-0.0727	-0.0516	inactive
16	Cp190 (GeneID 41848)	1	1.2	-0.483	-0.703	inactive
17	CG17562 (GeneID 42021)	1	-0.524	-0.597	1.45	inactive
18	Mybbp1A (GeneID 31010)	1	-0.744	-2.88	-2.08	active
19	CG12725 (GeneID 32298)	1	-0.734	-0.669	-4.17	inactive
20	CG12725 (GeneID 32298)	2	0.528	0.028	0.382	inactive
21	Atg3 (GeneID 40044)	1	0.324	0.173	-1.65	inactive
22	Atg3 (GeneID 40044)	2	0.464	0.675	0.0975	inactive
23	Atg3 (GeneID 40044)	3	0.361	1.18	0.458	inactive
24	stnA + stnB	1	0.584	1.03	0.937	inactive
25	Ser (GeneID 43275)	1	-1.32	-0.0469	-0.0888	inactive
26	Ser (GeneID 43275)	2	-0.267	-0.726	0.262	inactive
27	Tnks (GeneID 43095)	1	-1.25	-2.14	0.598	inactive
28	RapGAP1 (GeneID 34032)	1	-0.217	1.35	-3.43	inactive
29	RapGAP1 (GeneID 34032)	2	0.226	0.627	0.538	inactive
30	RapGAP1 (GeneID 34032)	3	-0.103	1.08	-0.411	inactive
31	RapGAP1 (GeneID 34032)	4	-0.689	-0.892	0.559	inactive
32	RapGAP1 (GeneID 34032)	5	-0.788	0.99	-1.08	inactive
33	RapGAP1 (GeneID 34032)	6	-0.573	0.693	-0.743	inactive
